Results of unrelated studies side by side (data: NIAID ChemDB).

Shared fields: growth or infection tests; species: HIV-1

An empty or dashed field is not shown. a–b is a range or a potency band. Lines come from different laboratories, so protocols vary. ECn is the concentration giving n% inhibition of infection, replication or growth.

| structure | measure | mutations | cell line | read by | strain | value |
|---|---|---|---|---|---|---|
| O=c1ccc2cc3ccoc3cc2o1 | EC50 |  | H9 | p24 | IIIB | 0.1 µg/mL |
| CCN(C(=O)OCc1ccc([N+](=O)[O-])cc1)C1CCN(CC[C@](C)(CN(C)S(=O)(=O)c2ccccc2)c2ccccc2)CC1 | EC95 |  | PBMC | p24 | YU-2 (M-tropic) | ~0.1 µM |
| C/C(CO)=C(/Br)Cn1cnc2c(N)ncnc21 | EC50 |  | MT-4 |  |  | >100 µg/mL |
| CCC(C1=C(O)C2CCCCCC2OC1=O)c1cccc(NS(=O)(=O)c2ccc(C#N)cn2)c1 | EC50 |  | H9 | p24 | IIIB | 2 µM |
| CCOCn1c(Cc2ccccc2)c(C(C)C)c(=O)[nH]c1=O | EC50 | RT-Y181C | MT-4 | cytopathic effect / MTT |  | 2 µM |
| Cc1ccccc1Cc1cccc(C(=O)CC(=O)C(=O)O)c1 | EC50 |  | MT-4 | p24 | IIIB | <0.61 µM |
| CCCN(C(=O)OCc1ccc([N+](=O)[O-])cc1)C1CCN(CC[C@H](CN(C)S(=O)(=O)c2ccccc2)c2ccccc2)CC1 | EC90 |  | MAGI + MAGI-CCR5 |  | YU-2 (M-tropic) | 0.02 µM |
| C=C(C#N)c1cc(C)c(Oc2ccnc(Nc3ccc(CN4CCN(S(C)(=O)=O)CC4)cc3)n2)c(C)c1 | EC50 | Y188L | MT-4 | MTT | IIIB | 1.62 µM |
| O=C1N(Cc2ccc(CO)cc2)[C@H](Cc2ccccc2)[C@H](O)[C@@H](O)[C@@H](Cc2ccccc2)N1Cc1ccc(CO)cc1 | EC50 | PR-L63P | MT-4 | p24 | NL4-3 | <0.1 µM |
| Nc1nc(N)c2ncn([C@H]3CC[C@@H](CO)C3)c2n1 | EC50 |  | MT-2 | cytopathic effect / XTT |  | 16.7 µg/mL |
| CCOCn1c(Cc2ccccc2)c(C(C)C)c(=O)[nH]c1=O | EC50 | RT-K103N | CEM | cytopathic effect | Y-1 (RT-K103N) | 0.6 µg/mL |
| Nc1ccn([C@H]2CC[C@@H](CO)O2)c(=O)n1 | EC50 |  | MOLT-4/8 + MOLT-4 | p24 | IIIRF | 0.17 µM |
| O=C(NCc1ccc(F)cc1)c1nc(N2CCCCS2(=O)=O)c2cccnc2c1O | EC50 | INTG-N155S |  | p24 |  | 0.072 µM |
| Nc1nc2c(ncn2[C@H]2C=C[C@@H](CO)C2)c(=O)[nH]1 | EC90 |  | PBMC | RT activity | IIIB | 0.5–1 µM |
| Cc1ccnc2c1NC(=O)c1cccnc1N2C1CC1 | EC50 |  | CEM | cytopathic effect | IIIB | 0.019 µg/mL |
| Cc1cn([C@H]2C[C@H](N=[N+]=[N-])[C@@H](CO)O2)c(=O)[nH]c1=O | EC50 | RT-K103N Y144F | CEM | cytopathic effect | P-1 (RT-K103N Y144F) | 0.02 µM |
| NC(=O)c1[nH]c2ccc(Cl)cc2c1S(=O)(=O)c1ccccc1 | EC50 |  |  |  |  | 0.005 µM |
| Cc1occc1C(=S)Nc1ccc(Cl)c(/C=N/OC(C)(C)C)c1 | EC50 | RT-K103N | CEM | cytopathic effect | IIIB | 0.2 µg/mL |
| CCN(C(=O)OCc1ccccc1)C1CCN(CC[C@](C)(CN(C)S(=O)(=O)c2ccccc2)c2ccccc2)CC1 | EC50 |  | PBMC | p24 | YU-2 (M-tropic) | <0.5 µM |
| CC(C)(Cl)C(O)COc1c2ccoc2cc2oc(=O)ccc12 | EC50 |  | H9 | p24 | IIIB | 2.25 µg/mL |
| CCc1cc(NCc2nc3c(Cl)ccc(Cl)c3o2)c(=O)[nH]c1C | EC50 |  | MT-4 | p24 | WMJ-2 | <0.2 µM |
| CC(C)(C)C(=O)SCCOP(=O)(OCCSC(=O)C(C)(C)C)OC[C@H]1O[C@@H](n2ccc(N)nc2=O)CS1 | EC50 |  | MOLT-4/8 + MOLT-4 | p24 | IIIRF | 0.22 µM |
| CC(C)=CCOc1cc(NC(=S)c2ccoc2C)ccc1Cl | EC50 | RT-T139K Y181C Y188D/Y | CEM | cytopathic effect | Q-1 (RT T139K Y181C Y188D/Y) | 0.06 µg/mL |
| [N-]=[N+]=N[C@@H]1[C@H](O)[C@@H](CO)O[C@H]1n1ccc(N)nc1=O | EC50 |  | PBMC | p24 | IIIB | >2 µM |
| Cc1cc(/C=C/C#N)cc(C)c1Nc1ccnc(Nc2ccc(C#N)cc2)n1 | EC50 | Lu164 | MT-4 | luciferase / RT activity | NL4-3 | 0.00009 µM |
| CCC(C1=C(O)C2CCCCC2OC1=O)c1cccc(NS(=O)(=O)c2ccc(C#N)cc2)c1 | EC50 |  | H9 | p24 | IIIB | >3 µM |
| Nc1nc2c(ncn2C2CC(/C=C/P(=O)(O)O)(C(F)(F)F)CO2)c(=O)[nH]1 | EC50 |  | PBMC | RT activity | LAI | 42 µM |
| CC(C)(C)NC(=O)[C@@H]1C[C@@H]2CCCC[C@@H]2CN1C[C@@H](O)[C@H](Cc1ccccc1)NC(=O)[C@H](CC(N)=O)NC(=O)c1ccc2ccccc2n1 | EC95 | PR-L63P | MT-4 | p24 | NL4-3 | 0.05 µM |
| CC(C)=CCOc1cc(NC(=S)c2ccoc2C)ccc1Cl | EC50 |  |  |  |  | 0.01 µM |
| Cc1cn([C@H]2C[C@H](N=[N+]=[N-])[C@@H](CO)O2)c(=O)[nH]c1=O | EC50 |  | MOLT-4/8 + MOLT-4 | p24 | IIIRF | 0.013 µM |
| C=CCN(C(=O)OCc1ccccc1)C1CCN(CCC(CN(C)S(=O)(=O)c2ccccc2)c2ccccc2)CC1 | EC50 |  | PBMC | p24 | YU-2 (M-tropic) | <0.8 µM |
| Nc1ncnc2c1ncn2C1CC(CCP(=O)(O)O)(C(F)(F)F)CO1 | EC90 |  | PBMC | RT activity | LAI | 90 µM |
| Nc1nc2c(ncn2[C@H]2C=C[C@@H](CO)C2)c(=O)[nH]1 | EC50 |  | MT-2 | cytopathic effect / XTT |  | 0.19 µg/mL |
| CCC(c1cccc(NS(=O)(=O)c2ccc(C#N)cn2)c1)c1c(O)c2c(oc1=O)CCCCC2 | EC50 |  | H9 | p24 | IIIB | >3 µM |
| Cc1cn([C@H]2C[C@H](N=[N+]=[N-])[C@@H](CO)O2)c(=O)[nH]c1=O | EC50 |  | C3 | RT activity | LAV | 0.02 µM |
| Cc1ccc(CCNC(=S)Nc2ccc(Br)cn2)cc1 | EC50 | RT-Y181C | PBMC | p24 | A17 | 0.07 µM |
| CC(C)=CCOc1cc(NC(=S)c2ccsc2C)ccc1Cl | EC50 | RT-V179D | CEM | syncytia | IIIB | 0.012 ± 0.008 µM |
| Nc1nc2c(ncn2C2CC(CCP(=O)(O)O)(C(F)(F)F)CO2)c(=O)[nH]1 | EC90 |  | PBMC | RT activity | LAI | 95 µM |
| CCc1cc(NCc2nc3c(C)ccc(C)c3o2)c(=O)[nH]c1C | EC50 |  | H9 | p24 | IIIB | <0.2 µM |
| CCC(C1=C(O)C2CCCC2OC1=O)c1cccc(NS(=O)(=O)c2ccc(C#N)cn2)c1 | EC50 |  | H9 | p24 | IIIB | 2.9 µM |
| CC(C)=CCOc1cc(NC(=S)c2ccoc2C)ccc1Cl | EC50 |  | CEM | cytopathic effect | IIIB | 0.002 µg/mL |
| CN(C[C@@H](CCN1CCC2(CC1)CS(=O)c1ccccc12)c1cccc(Cl)c1)S(=O)(=O)c1ccccc1 | EC50 |  | PBMC | p24 | YU-2 (M-tropic) | <12.5 µM |
| Nc1nc(N)c2ncn([C@H]3C=C[C@@H](CO)C3)c2n1 | EC50 |  | MT-2 | cytopathic effect / XTT |  | 4.7 µg/mL |
| c1cc(CN2CCCNCCNCCCNCC2)ccc1CN1CCCNCCNCCCNCC1 | EC50 |  | MT-4 | cytopathic effect / MTT | NL4 Suc-HSA-resistant | 0.01 µg/mL |
| C/C(CO)=C(/Br)Cn1cc(C)c(=O)[nH]c1=O | EC50 |  | MT-4 |  |  | >100 µg/mL |
| Cc1cn([C@H]2C[C@H](N=[N+]=[N-])[C@@H](CO)O2)c(=O)[nH]c1=O | EC50 | RT-M184V P294S | MT-4 | RT activity | HXB2-D184+294 (RT M184V P294S) | 0.014 µM |
| CCCN(C(=O)OCc1ccccc1)C1CCN(CCC(CN(C)S(=O)(=O)c2ccccc2)c2ccccc2)CC1 | EC95 |  | PBMC | p24 | YU-2 (M-tropic) | 12.5 µM |
| Nc1nc(N)c2ncn(CCOCP(=O)(O)O)c2n1 | EC50 |  | C3 | RT activity | LAV | 0.2 µM |

For reference, 6 entries again:

{"structure": "Cc1cn([C@H]2C[C@H](N=[N+]=[N-])[C@@H](CO)O2)c(=O)[nH]c1=O", "measure": "EC50", "mutations": "RT-M184V P294S", "cell line": "MT-4", "read by": "RT activity", "strain": "HXB2-D184+294 (RT M184V P294S)", "value": "0.014 µM"}
{"structure": "CC(C)=CCOc1cc(NC(=S)c2ccsc2C)ccc1Cl", "measure": "EC50", "mutations": "RT-V179D", "cell line": "CEM", "read by": "syncytia", "strain": "IIIB", "value": "0.012 ± 0.008 µM"}
{"structure": "CN(C[C@@H](CCN1CCC2(CC1)CS(=O)c1ccccc12)c1cccc(Cl)c1)S(=O)(=O)c1ccccc1", "measure": "EC50", "cell line": "PBMC", "read by": "p24", "strain": "YU-2 (M-tropic)", "value": "<12.5 µM"}
{"structure": "CC(C)(Cl)C(O)COc1c2ccoc2cc2oc(=O)ccc12", "measure": "EC50", "cell line": "H9", "read by": "p24", "strain": "IIIB", "value": "2.25 µg/mL"}
{"structure": "CCOCn1c(Cc2ccccc2)c(C(C)C)c(=O)[nH]c1=O", "measure": "EC50", "mutations": "RT-Y181C", "cell line": "MT-4", "read by": "cytopathic effect / MTT", "value": "2 µM"}
{"structure": "CCN(C(=O)OCc1ccccc1)C1CCN(CC[C@](C)(CN(C)S(=O)(=O)c2ccccc2)c2ccccc2)CC1", "measure": "EC50", "cell line": "PBMC", "read by": "p24", "strain": "YU-2 (M-tropic)", "value": "<0.5 µM"}